Pooled drug test results. Numbers come from NIAID ChemDB, via PubChem.

Common to all: growth or infection tests

A number after MIC or MFC names an inhibition level or a share of isolates. Percent inhibition refers to the dose given; in toxicity tests it is the harm to the cells. Two numbers with a dash give a range or band. Blank or dashed fields: not listed here. Neighbouring rows are from separate reports. ECn: concentration that inhibits the pathogen or its effect by n%.

SMILES | agent | strain or isolate | cell line | read by | read-out | tested at | value
Oc1cccc(C=Nc2ccccc2O)c1 | Cryptococcus neoformans | ATCC 28957 | - | - | MIC99 | - | 2.8 µg/mL
O=c1[nH]c(=O)n([C@@H]2O[C@H](CO)[C@@H](O)[C@@H]2O)cc1/C=C/Br | Varicella zoster virus | HIRAI | HELF | plaque count | inhibition | 0.001 µg/mL | 97%
Cc1nc(NCCCCNc2ccnc3cc(Cl)ccc23)nc(-c2ccccc2)c1C(=O)OC(C)C | Cryptococcus gattii | L 27/01 | - | - | MIC99 | - | 32 µg/mL
Cc1cn([C@@H]2O[C@H](CO)[C@@H](O)[C@@H]2O)c(=O)[nH]c1=O | Varicella zoster virus | Kawaguchi | HELF | plaque count | inhibition | 0.1 µg/mL | 31%
CC(=O)N[C@H]1[C@H]([C@H](O)[C@H](O)CO)OC(C(=O)O)=C[C@@H]1N=C(N)N | Influenza A virus | H3N2 A/X-31 | MDCK | - | EC50 | - | 0.4 µM
O=C1C(c2[nH]c3ccc(S(=O)(=O)O)cc3c2O)=Nc2ccc(S(=O)(=O)O)cc21 | Herpes simplex virus | - | Human conjunctiva cells | cytopathic effect | inhibition | 50 µg/mL | 0%
CCOC(=O)/C=C/[C@H](C[C@@H]1CCNC1=O)NC(=O)[C@@H](CC(=O)[C@@H](NC(=O)c1cc(C)on1)C(C)C)Cc1ccc(F)cc1 | Rhinovirus | Isolate 30 | OHIO HELA-I | cytopathic effect / visual reading | EC50 | - | 0.02 µg/mL
CCOC(=O)c1ccc(OCCC2CCN(c3ccc(C)nn3)CC2)cc1 | Rhinovirus | 1200 (ICAM-1 receptor group 33) | KB | neutral red | EC50 | - | 0.054 µM
COc1cc(-c2ccc(N=Nc3ccc4c(S(=O)(=O)O)cc(S(=O)(=O)O)c(N)c4c3O)c(OC)c2)ccc1N=Nc1ccc2c(S(=O)(=O)O)cc(S(=O)(=O)O)c(N)c2c1O | Rhinovirus | - | Human embryonic lung cells | cytopathic effect | inhibition | 50 µg/mL | 20%
Nc1nc(=O)n([C@@H]2O[C@H](CO)[C@@H](O)[C@@H]2F)cc1I | Varicella zoster virus | Asahikawa | HELF | plaque count | inhibition | 0.1 µg/mL | 81%
C=CCc1ccc(OC)c(OC)c1 | Candida tropicalis | 2833 | - | turbidity | MIC90 | - | 345 µg/mL
C[C@@H](NC(=O)c1c2n(c(=O)n1-c1ccc(OCC(F)(F)F)cc1)CCN(C(=O)c1ccc(Br)c(Cl)c1)C2)c1ccc(OC(C)(C)C(N)=O)cc1F | Hepatitis B virus | - | HepG2.117 | PCR | EC50 | - | 0.1–0.5 µM
Cc1cn([C@@H]2O[C@H](CO)[C@@H](O)[C@@H]2F)c(=O)nc1N | Varicella zoster virus | HIRAI | HELF | plaque count | inhibition | 0.001 µg/mL | 4%
O=S(=O)([O-])c1cc(S(=O)(=O)[O-])c2cc(NS(=O)(=O)c3ccccc3)ccc2c1 | Herpes simplex virus | - | Human conjunctiva cells | cytopathic effect | inhibition | 5 µg/mL | 0%
Oc1ccc(O)c(C=Nc2ccccc2O)c1 | Cryptococcus gattii | 135L/03 | - | - | MIC99 | - | 8 µg/mL
O=S(=O)([O-])c1cc(O)c2ccccc2c1 | Herpes simplex virus | - | Human amnion AV3 cells | cytopathic effect | inhibition | 5 µg/mL | 0%
O=c1[nH]c(=O)n([C@H]2C[C@H](O)[C@@H](CO)O2)cc1I | Varicella zoster virus | Kawaguchi | HELF | plaque count | inhibition | 1 µg/mL | 100%
O=S(=O)([O-])c1cccc(O)c1 | Adenovirus | TYPE 3 | Human embryonic lung cells | cytopathic effect | inhibition | 10 µg/mL | 0%
CNc1ccc(-n2c(C(=O)NCc3ccccc3)c3n(c2=O)CCN(C(=O)c2ccc(Br)c(Cl)c2)C3)cc1 | Hepatitis B virus | - | HepG2.117 | PCR | EC50 | - | 0.1–0.5 µM
Oc1ccccc1N=Cc1ccc(O)c(O)c1O | Cryptococcus gattii | ATCC 32608 | - | - | MIC99 | - | 11.3 µg/mL
CNC(=O)c1cccc(-n2c(C(=O)NCc3ccccc3)c3n(c2=O)CCN(C(=O)c2ccc(Br)c(Cl)c2)C3)c1 | Hepatitis B virus | - | HepG2.117 | PCR | EC50 | - | 0.5–5 µM
CCOC(=O)c1c(C)nc(NCCCCNc2ccnc3cc(Cl)ccc23)nc1-c1ccccc1 | Cryptococcus gattii | L24/01 | - | - | MIC99 | - | 8 µg/mL
O=C1CCc2cc(-n3c(C(=O)NCc4ccccc4)c4n(c3=O)CCN(C(=O)c3ccc(Br)c(Cl)c3)C4)ccc2N1 | Hepatitis B virus | - | HepG2.117 | PCR | EC50 | - | 0.5–5 µM
O=S(=O)(O)c1cc(O)c2c(O)cc(S(=O)(=O)O)cc2c1 | Adenovirus | TYPE 3 | Human embryonic lung cells | cytopathic effect | inhibition | 50 µg/mL | 40%
Nc1ncnc2c1ncn2C=C1CC1CO | Human cytomegalovirus | VR5120 (ganciclovir-resistant) | - | plaque count | EC90 | - | 4.2 µM
CCOC(=O)c1c(C)nc(NCCCCNc2ccnc3cc(Cl)ccc23)nc1-c1ccccc1[N+](=O)[O-] | Cryptococcus neoformans | F-10 | - | - | MIC99 | - | 4 µg/mL

Repeating the first 3 entries:

Oc1cccc(C=Nc2ccccc2O)c1 ; agent: Cryptococcus neoformans ; strain or isolate: ATCC 28957 ; read-out: MIC99 ; value: 2.8 µg/mL
O=c1[nH]c(=O)n([C@@H]2O[C@H](CO)[C@@H](O)[C@@H]2O)cc1/C=C/Br ; agent: Varicella zoster virus ; strain or isolate: HIRAI ; cell line: HELF ; read by: plaque count ; read-out: inhibition ; tested at: 0.001 µg/mL ; value: 97%
Cc1nc(NCCCCNc2ccnc3cc(Cl)ccc23)nc(-c2ccccc2)c1C(=O)OC(C)C ; agent: Cryptococcus gattii ; strain or isolate: L 27/01 ; read-out: MIC99 ; value: 32 µg/mL